Results of unrelated studies side by side (data: NIAID ChemDB).

All rows: whole-cell or culture tests; agent: HIV-1

ECn is the concentration giving n% inhibition of infection, replication or growth. Neighbouring rows are from separate reports. An empty or dashed field is not shown.

SMILES,strain or isolate,measure,setting,cell line,method,mutations,value
CC(C)(C)NC(=O)[C@@H]1CN(Cc2cccnc2)CCN1C[C@@H](O)C[C@@H](Cc1ccccc1)C(=O)N[C@H]1c2ccccc2C[C@H]1O,LAI Laboratory isolate,EC50,-,PBMC,p24,-,0.015 µM
CC(C)=CCN1Cc2cccc3[nH]c(=O)n(c23)CC1C,UC781-RS(RT-Y181C,EC50,-,-,-,RT-Y181C,11.8 µM
CC(C)c1nc(CN(C)C(=O)N[C@H](C(=O)N[C@@H](Cc2ccccc2)C[C@H](O)[C@H](Cc2ccccc2)NC(=O)OCc2cncs2)C(C)C)cs1,LAI Laboratory isolate,EC50,-,MT-2,cytopathic effect / MTT,-,0.041 µM
CCCCCCCCCCCCSCC(COP(=O)([O-])OCC[N+](C)(C)C)OCCCCCCCCO,IIIB,EC50,-,CEM + CEM-SS,plaque count,-,0.61 µM
CC(C)=CCOc1cc(NC(=S)c2ccoc2C)ccc1Cl,WEJO,EC50,-,PBMC,-,-,0.007 µM
C1CNCCNCCCN[C@H]([C@@H]2CNCCCNCCNCCCN2)CNC1,IIIB,EC50,-,MT-4,plaque count,-,0.43 µM
O=S1(c2ccccc2)=NC(=S)Nc2ccccc21,IIIB,EC50,-,CEM + CEM-SS,cytopathic effect / XTT,-,4.04 µM
Cc1ccnc2c1NC(=O)c1cccnc1N2C1CC1,D148/86,EC50,-,PBMC,p24 / ELISA,-,0.422 µM
Cc1occc1C(=S)Nc1ccc(Cl)c(/C=N/OC(C)(C)C)c1,-,EC50,-,-,-,-,0.2 µM
O=C(Nc1cc(S(=O)(=O)O)cc2cc(S(=O)(=O)O)c(N=Nc3ccc(N=Nc4c(S(=O)(=O)O)cc5cc(S(=O)(=O)O)cc(NC(=O)c6cccc(Cl)c6Cl)c5c4O)cc3)c(O)c12)c1ccc(Cl)cc1Cl,IIIB,EC50,-,SupT1 + Sup-T1,syncytia,-,2.8 µg/mL
Cc1cc(=O)c2ccc(N=C=S)cc2o1,IIIB,EC50,-,CEM-GFP,p24 / ELISA,-,0.242 µM
O=C1c2ccccc2C2(c3ccccc3)SCCN12,D148/88,EC50,-,PBMC,p24 / ELISA,-,0.64 µM
Cc1cn([C@@H]2O[C@H](CO[Si](C)(C)C(C)(C)C)[C@@]3(OS(=O)(=O)C=C3N)[C@H]2O[Si](C)(C)C(C)(C)C)c(=O)[nH]c1=O,UC781-RS(RT-Y181C,EC50,-,-,-,RT-Y181C,>10 µM
Nc1nc(=O)n([C@@H]2CS[C@H](CO)O2)cc1F,NL4-3,EC50,-,TZM-gfp,GFP,A114S/M184V/A502V,>100 µM
O=S1(c2ccc(Cl)cc2)=NC(=S)Nc2ccc(Cl)cc21,IIIB,EC50,-,MT-2,cytopathic effect / XTT,-,0.04 µM
Cc1cc(/C=C/C#N)cc(C)c1Nc1ccnc(Nc2ccc(C#N)cc2)n1,92BR014,EC50,-,PBMC,absorbance,ZA-resistant mutant,0.0009 µM
CC(C)CN(C[C@@H](O)[C@H](Cc1ccccc1)NC(=O)O[C@H]1CCOC1)S(=O)(=O)c1ccc(N)cc1,Clinical isolate,EC50,-,PBMC,p24,PR-L10I V11I T12E I15V L19I R41K M46L L63 A71T V82A L90M,0.31 µM
Cc1cccc(C)c1OCC(=O)N[C@@H](Cc1ccccc1)[C@@H](O)C[C@H](Cc1ccccc1)NC(=O)[C@H](C(C)C)N1CCCNC1=O,ERS104pre,EC50,-,PBMC,p24,-,0.03 µM
CC(C)(C)NC(=O)[C@@H]1C[C@@H]2CCCC[C@@H]2CN1C[C@@H](O)[C@H](Cc1ccccc1)NC(=O)[C@H](CC(N)=O)NC(=O)c1ccc2ccccc2n1,NL4-3,EC50,-,MT-4,p24,PR-D30N N88D,<0.01 µM
Cc1cc(C#N)cc(C)c1Oc1nc(Nc2ccc(C#N)cc2)nc(N)c1Br,93TH051,EC50,-,PBMC,absorbance,-,0.0008 µM
CC(C)CN(C[C@@H](O)[C@H](Cc1ccccc1)NC(=O)O[C@H]1CCOC1)S(=O)(=O)c1ccc(N)cc1,LAI,EC50,-,MT-2,MTT,-,0.05 µM
CC(C)CN(C[C@@H](O)[C@H](Cc1ccccc1)NC(=O)O[C@H]1CCOC1)S(=O)(=O)c1ccc(N)cc1,-,EC50,"clinical isolate, multidrug-resistant",PBMC,p24,-,0.3 µM
Cc1ccc(-c2ccc3c(c2)C=C(C(=O)Nc2ccc(C[N+](C)(C)C4CCOCC4)cc2)CCC3)cc1,NL4-3 X4,EC50,-,PBMC,antigen,-,>1 µg/mL
Cc1cn([C@H]2C[C@H](N=[N+]=[N-])[C@@H](CO)O2)c(=O)[nH]c1=O,Isolate 472,EC90,-,PBMC,p24,-,1.4 µM
CC(C)CN(C[C@@H](O)[C@H](Cc1ccc(F)cc1)NC(=O)O[C@H]1CCO[C@H]2OCC[C@H]21)S(=O)(=O)c1ccc2nc(NC(C)C)sc2c1,ERS104pre,EC50,-,PBMC,p24 / luminescence,L63P,0.0025 µM
Cc1ccnc2c1NC(=O)c1cccnc1N2C1CC1,CLADE C,EC50,clinical isolate,PBMC,cytopathic effect / XTT,-,0.05 µM
O=c1[nH]cnc2c1ncn2[C@H]1CC[C@@H](CO)O1,HX(RT-S156A),EC50,-,MT-2,RT activity,RT-S156A,1.8 µM
C1CNCCNCCCN(CCCN2CCCNCCNCCCNCC2)CCNC1,clinical isolate A012D AZT-resistant,EC50,-,MT-4,p24 / ELISA,-,0.25 µM
Nc1ccn([C@@H]2CS[C@H](CO)O2)c(=O)n1,LAI-XXBRU WT,EC50,-,CEM + CEM-SS,plaque count,-,0.06 µM
CCO/N=C(\c1ccc(Br)cc1)C1CCN(C2(C)CCN(C(=O)c3c(C)cc[n+]([O-])c3C)CC2)CC1,301657 R5 CLADE B,EC50,-,PBMC,p24,-,0.005 µM
Fc1cccc(F)c1C1SCc2nc3ccccc3n21,-,EC50,-,-,-,-,3.4 µM
Nc1ccn([C@H]2CC[C@@H](CO)O2)c(=O)n1,HXB2-D (RT K65R M184V),EC50,-,MT-4,p24,RT-K65R M184V,5.8 µM
CC(C)(C)NC(=O)[C@@H]1C[C@@H]2CCCC[C@@H]2CN1C[C@@H](O)[C@H](Cc1ccccc1)NC(=O)[C@H](CC(N)=O)NC(=O)c1ccc2ccccc2n1,NL4-3 Laboratory clone,EC50,-,MT-2,cytopathic effect / MTT,-,0.019 µM
CCCCCCCCCCCCSCC(COP(=O)([O-])OCC[N+](C)(C)C)OCCCCCCCCC(=O)OCC(=O)OC[C@H]1O[C@@H](n2cc(C)c(=O)[nH]c2=O)C[C@@H]1N=[N+]=[N-],5346/5652-MDR (RT T215F A98S D67N K219Q) Drug-resistant,EC50,-,CEM-SS,plaque count,RT-T215F A98S D67N K219Q,0.03 µM
Nc1nc(N)c2ncn([C@H]3CO[C@@H](CO)O3)c2n1,-,EC50,-,MT-2,-,RT-K65R,17.2 µM
Nc1ccn([C@H]2CC[C@@H](CO)O2)c(=O)n1,HX(RT-S156A),EC50,-,MT-2,RT activity,RT-S156A,0.29 µM
Fc1cccc(F)c1C1SCc2nc3ccccc3n21,RF,EC50,-,CEMx174 + CEM,cytopathic effect / XTT,-,1.74 µM
CC(C)CN(C[C@@H](O)[C@H](Cc1ccccc1)NC(=O)[C@H](CC(N)=O)NC(=O)c1ccc2ccccc2n1)C(=O)NC(C)(C)C,RF,EC50,-,-,-,-,0.077 µM
CCN(c1ncccc1NC(C)(C)C)C1CCN(C(=O)c2cc3cc(NS(C)(=O)=O)ccc3[nH]2)CC1,Isolate 410,EC90,-,PBMC,p24,-,1.1 µM
O=C1O[C@H]2[C@@H]3OC(=O)c4cc(O)c(O)c(O)c4-c4c(cc(O)c(O)c4O)C(=O)OC[C@H]2O[C@@H](OC(=O)c2cc(O)c(O)c(O)c2)[C@@H]3OC(=O)c2cc(O)c(O)c3c2[C@@H]2C1=CC(=O)[C@](O)(O3)C2(O)O,HX10 WT,EC50,-,MAGI,-,-,0.74 µg/mL

Repeating the final 2 entries:

SMILES | strain or isolate | measure | setting | cell line | method | mutations | value
CCN(c1ncccc1NC(C)(C)C)C1CCN(C(=O)c2cc3cc(NS(C)(=O)=O)ccc3[nH]2)CC1 | Isolate 410 | EC90 | - | PBMC | p24 | - | 1.1 µM
O=C1O[C@H]2[C@@H]3OC(=O)c4cc(O)c(O)c(O)c4-c4c(cc(O)c(O)c4O)C(=O)OC[C@H]2O[C@@H](OC(=O)c2cc(O)c(O)c(O)c2)[C@@H]3OC(=O)c2cc(O)c(O)c3c2[C@@H]2C1=CC(=O)[C@](O)(O3)C2(O)O | HX10 WT | EC50 | - | MAGI | - | - | 0.74 µg/mL